This test in a line: Induction of muscle contraction in snail buccal mass.

Molecule `CC(C)[C@H](NC(=O)[C@H](CCCNC(=N)N)NC(=O)[C@H](CCC(N)=O)NC(=O)[C@H](C)NC(=O)[C@H](CO)NC(=O)CNC(=O)[C@H](CCCCN)NC(=O)[C@@H](NC(=O)[C@H](Cc1ccccc1)NC(=O)[C@H](C)N)C(C)C)C(=O)N[C@@H](C)C(=O)N[C@@H](Cc1cnc[nH]1)C(=O)NCC(=O)N[C@@H](Cc1ccc(O)cc1)C(=O)O` gave an EC50 of 8 nM.

A word on the EC50: it is the concentration at which the effect is half-maximal. Higher therefore signals lower potency in that assay.

The record behind these values is ChEMBL document CHEMBL4673185 (RSC Med Chem, 2020).
